Anti-infective test results gathered from many reports (values: NIAID ChemDB through PubChem).

Common to all: growth or infection tests

ECn: concentration that inhibits the pathogen or its effect by n%. A number after MIC or MFC names an inhibition level or a share of isolates. Percent inhibition refers to the dose given; in toxicity tests it is the harm to the cells. Fold resistance has wild type as its base. Rows are shuffled and stem from different studies. Blank or dashed fields: not listed here.

structure	organism	strain	tested at	cells	read by	mutations	endpoint	value
C[C@@H]1[C@H](O)[C@@H](C)/C=C/C=C/CC/C=C/C=C/C=C/C=C/C(O[C@H]2O[C@H](C)[C@@H](O)[C@H](N)[C@@H]2O)CC2O[C@](O)(CC(O)C(O)CCC(O)CC(O)CC(O)CC(=O)O[C@H]1C)CC(O)C2C(=O)O	Candida tropicalis	ATCC 40042			broth dilution		MFC100	64 µg/mL
COc1ccc2c(O[C@@H]3C[C@H]4C(=O)N[C@]5(C(=O)NS(=O)(=O)C6CC6)C[C@H]5/C=C\CCCCN(C)C(=O)[C@@H]4C3)cc(-c3nc(C(C)C)cs3)nc2c1C	Hepatitis C virus	J6		Huh7.5	antigen		EC50	0.249 µM
C[C@@H]1CN(c2c(F)c(N)c3c(=O)c(C(=O)O)cn(C4CC4)c3c2F)C[C@H](C)N1	Streptococcus pneumoniae	Clinical isolate 6406					MIC	0.5 µg/mL
N=C(N)c1ncn([C@@H]2O[C@H](CO)[C@@H](O)[C@H]2O)n1	West Nile virus	Uganda		VERO	cytopathic effect / visual reading		EC50	320 µg/mL
NC(=O)c1ncn([C@@H]2O[C@H](CO)[C@@H](O)[C@H]2O)c1O	Respiratory syncytial virus	TYPE A/LONG		HeLa	plaque count		EC50	1.6 µg/mL
COC(=O)[C@H]1[C@@H]2C[C@@H](O[C@@H]3O[C@H](C)[C@@H](O)[C@H](N)[C@@H]3O)/C=C/C=C/C=C/C=C/C=C/C=C/C=C/[C@H](C)[C@@H](O)[C@H](C)[C@H](C)OC(=O)C[C@H](O)C[C@H](O)[C@@H](O)CC[C@H](O)C[C@H](O)C[C@](O)(C[C@@H]1O)O2	Vesicular stomatitis virus		50 µg/mL	T98G	plaque count		inhibition	0%
Nc1ccn(C[C@@H](CO)OCP(=O)(O)O)c(=O)n1	Human herpesvirus 6	GS		HSB-2	cytopathic effect		EC50	14 µM
COc1cc(C2C3(O)C(O)C4CC2(O)C(O)(C(=O)O4)C3C(=O)c2ccccc2)oc(=O)c1	Herpes simplex virus 1	KOS		HeLa	cytopathic effect		EC50	>100 µg/mL
CC(=O)OC[C@H]1O[C@@H](n2ncc(=O)[nH]c2=O)[C@H](OC(C)=O)[C@@H]1OC(C)=O	West Nile virus	Uganda		VERO	cytopathic effect / visual reading		EC50	0.6 µg/mL
Nc1ccn([C@@H]2C[C@H](CO)[C@@H](O)[C@H]2O)c(=O)n1	Vesicular stomatitis virus			RK-13	cytopathic effect		EC50	>400 µg/mL
CC(=O)OC1CN2CCC1CC2	Herpes simplex virus 1	KOS		HeLa	cytopathic effect		EC50	>400 µg/mL
Nc1nc2c(ncn2[C@@H]2C[C@H](CO)[C@H]2CO)c(=O)[nH]1	Human herpesvirus 6	GS		HSB-2	cytopathic effect		EC50	7.4 µM
COC(=O)N[C@H](C(=O)N1CCC[C@H]1c1ncc(-c2ccc(-c3ccc(-c4cnc([C@@H]5CCCN5C(=O)[C@@H](NC(=O)OC)C(C)C)[nH]4)cc3)cc2)[nH]1)C(C)C	Hepatitis C virus	S52		Huh7.5	antigen		EC50	0.00008 µM
CC[C@@]1(OC(=O)CN)C(=O)OCc2c1cc1n(c2=O)Cc2cc3cc(O)ccc3nc2-1	Saccharomyces cerevisiae	Mutant ΔERG6					MIC	>100 µg/mL
NC(=O)c1[nH]nc([C@@H]2O[C@H](CO)[C@@H](O)[C@H]2O)c1O	West Nile virus	NEW YORK		MA-104	virus yield		EC50	<0.3 µg/mL
CO[C@@H]1[C@@H](O[C@@H]2O[C@H](C)[C@@H](O[C@H]3C[C@@](C)(O)[C@@H](O)[C@H](C)O3)[C@H](N(C)C)[C@H]2O)[C@@H](CC=O)C[C@@H](C)[C@@H](O[C@H]2CC[C@H](N(C)C)[C@H](C)O2)/C=C/C=C/C[C@@H](C)OC(=O)C[C@H]1O	Toxoplasma gondii		1 µg/mL				inhibition	40%
C[C@H](Cc1ccc(O)c(O)c1)[C@@H](C)Cc1ccc(O)c(O)c1	Candida albicans	CCC 130-2000			broth dilution		MIC100	250 µg/mL
C[C@@]1(O)[C@H](O)[C@@H](CO)O[C@H]1c1c[nH]c2c(N)ncnc12	Hepatitis C virus		10 µg/mL	HepG2-T5B	MTT		inhibition	0%
COc1cc2c(cc1OC)C1OCCCN1c1c-2ccc2cc3c(cc12)OCO3	Saccharomyces cerevisiae	Mutant ΔERG6					MIC	25 µg/mL
O=C1C=CN([C@@H]2O[C@H](CO)[C@@H](O)[C@H]2O)C(=O)C1	West Nile virus	Uganda		VERO	cytopathic effect		EC50	40 µg/mL
COc1ccc(C[C@H]2NC[C@H](O)[C@H]2OC(C)=O)cc1	Herpes simplex virus 1	KOS		HeLa	cytopathic effect		EC50	>100 µg/mL
C#C[C@]1(CO)O[C@@H](n2cnc3c(N)nc(F)nc32)CC1O	HIV-2	ROD9		MAGIC-5A	β-galactosidase / absorbance	K65R M184V	fold resistance	19
COc1c(C)c2c(c(O)c1C/C=C(\C)CCC(=O)O)C(=O)OC2	West Nile virus	Uganda		VERO	cytopathic effect		EC50	0.12 µg/mL
CCC(C)n1ncn(-c2ccc(N3CCN(c4ccc(OC[C@H]5CO[C@](Cn6cncn6)(c6ccc(Cl)cc6Cl)O5)cc4)CC3)cc2)c1=O	Candida albicans	Isogenic isolate 6 MDR1 (25X)					MIC	0.03 µg/mL
Nc1nc(=O)n([C@@H]2O[C@H](CO)[C@@H](O)[C@@H]2F)cc1I	Human herpesvirus 6	GS		HSB-2	antigen / flow cytometry		EC50	>1 µM
O=c1cnn([C@@H]2O[C@H](CO)[C@@H](O)[C@H]2O)c(=O)[nH]1	West Nile virus	Uganda		VERO	cytopathic effect		EC50	0.9 µg/mL
CC[C@@]1(O)C(=O)OCc2c1cc1n(c2=O)Cc2cc3cc(O)ccc3nc2-1	Saccharomyces cerevisiae	Mutant ΔERG6 ΔTOP1					MIC	>100 µg/mL
C[C@@]1(O)[C@H](O)[C@@H](CO)O[C@H]1n1ccc2c(N)ncnc21	Hepatitis C virus		50 µg/mL	HeLa-5B	MTT		inhibition	1.07%
O=C(O)P(=O)(O)O	Human herpesvirus 6	GS		HSB-2	antigen / flow cytometry		EC50	5.8 µM
CO[C@H]1[C@@H](O)[C@H](N)[C@@H](O[C@H]2O[C@H](C(C)N)CC[C@H]2N)[C@H](O)[C@@H]1N(C)C(=O)CN	Herpes simplex virus 1	KOS		HeLa	cytopathic effect		EC50	>200 µg/mL
CC[C@@]1(O)C(=O)OCc2c1cc1n(c2=O)Cc2c-1nc1cc3c(cc1c2C)OCO3	Saccharomyces cerevisiae	Mutant ΔERG6 ΔTOP1					MIC	>100 µg/mL
Nc1nccc2c1ncn2[C@@H]1C[C@H](CO)[C@@H](O)[C@H]1O	Rotavirus A			MA-104	virus yield		EC90	1.4 µg/mL
Nc1ccn([C@@H]2C=C(CO)[C@@H](O)[C@@H]2O)c(=O)n1	West Nile virus	NEW YORK		MA-104	virus yield		EC50	<1.4 µg/mL
Nc1ncnc2c1ncn2[C@@H]1C=C(CO)[C@@H](O)[C@H]1O	Rotavirus A			MA-104	virus yield		EC90	0.2 µg/mL
Nc1ncnc2c1ncn2[C@H]1CC[C@@H](CO)O1	HIV-2	LAV-2		U-937	virus yield		EC50	~0.1 µM
O=C1c2cccc(O)c2C(=O)c2c(O)cccc21	Herpes simplex virus 1	KOS		HeLa	cytopathic effect		EC50	>200 µg/mL
NC(=O)c1c[se]c([C@@H]2O[C@H](CO)[C@@H](O)[C@H]2O)n1	West Nile virus	NEW YORK		MA-104	cytopathic effect / visual reading		EC50	8.1 µg/mL
CC[C@]1(O)C(=O)OCc2c1cc1n(c2=O)Cc2cc3cc4c(cc3nc2-1)OCO4	Saccharomyces cerevisiae	Mutant ΔERG6					MIC	>100 µg/mL
N[C@@H](CCC(=O)O)C(=O)N[C@@H](CCC(=O)O)C(=O)N[C@@H](CCC(=O)O)C(=O)O	Herpes simplex virus 1	KOS		HeLa	cytopathic effect		EC50	>200 µg/mL
Nc1nc2c(ncn2C[C@@H](CO)OCP(=O)(O)O)c(=O)[nH]1	Human herpesvirus 6	GS		HSB-2	antigen / flow cytometry		EC50	56 µM
CC[C@@]1(O)C(=O)OCc2c1cc1n(c2=O)Cc2cc3c(CN(C)C)c(O)ccc3nc2-1	Saccharomyces cerevisiae	Mutant ΔERG6					MIC	>1000 µg/mL

2 of the rows above, restated:

| structure | organism | strain | tested at | cells | read by | mutations | endpoint | value |
|---|---|---|---|---|---|---|---|---|
| CC(=O)OC[C@H]1O[C@@H](n2ncc(=O)[nH]c2=O)[C@H](OC(C)=O)[C@@H]1OC(C)=O | West Nile virus | Uganda |  | VERO | cytopathic effect / visual reading |  | EC50 | 0.6 µg/mL |
| N[C@@H](CCC(=O)O)C(=O)N[C@@H](CCC(=O)O)C(=O)N[C@@H](CCC(=O)O)C(=O)O | Herpes simplex virus 1 | KOS |  | HeLa | cytopathic effect |  | EC50 | >200 µg/mL |